PSTVd loop 6 mutant pool in Nicotiana benthamiana

Values reported by Wu et al. 2024 (doi:10.1371/journal.ppat.1012142).

Region: loop 6 of PSTVd (intermediate strain), upper and lower strand joined, each 5' to 3', the first 5 letters being the upper strand, closing pairs included. Wild type: UGACCGCGAG. Varied positions (N): UNNNCGNNNG.

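A pool of all variants was put on leaves of three Nicotiana benthamiana plants. Samples came from the inoculated region at 5 days, the leaf margin at 10 and upper systemic leaves at 12.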

Numbers give reads per thousand; 0 = not seen among the reads, higher = more abundant. Each site shows the three plants. "Pool" is the share in the plasmid pool used as inoculum, on the same scale. The inoculated region was read from the minus strand, the other sites from the plus strand. With 36,220-57,551 reads a sample, very low values are single reads. Sequences that differ at fixed positions probably stem from PCR or sequencing errors, and defective variants can be carried along by functional ones. For reference, wild type rose from 20.7 per thousand in the pool to 195, 198, 203 (inoculated region), 629, 591, 734 (leaf margin) and 942, 870, 868 (systemic leaves).

sequence,pool,inoculated region,leaf margin,systemic leaves
UCGUCGGAAG,0.183,0.139 0.0898 0.129,0 0 0,0 0 0
UGGCCGCCUG,0.275,0.139 0.126 0.0922,0.0276 0.0504 0.0464,0 0 0
UAUCCGCGCG,0.209,0.104 0.108 0.0922,0.0276 0 0,0 0 0
UGCCCGCGUG,0.0654,0.122 0.0719 0.111,0.0276 0 0.0232,0 0 0.0205
UCCGCGUGUG,0.248,0.0869 0.108 0.0369,0 0 0.0232,0 0 0
UCAUCGGUCG,0.301,0.139 0.0539 0.0553,0 0 0,0 0 0
UGUGCGCACG,0.170,0.104 0.0719 0.0738,0 0 0.0232,0 0 0
UUCACGCACG,0.314,0.904 0.539 0.664,0.0276 0.177 0.0928,0 0 0
UCUGCGUCGG,0.340,0.0695 0.0719 0.111,0 0 0.0232,0 0 0
UUGGCGCGAU,0.0261,0 0.0359 0.129,0.0828 0 0,0 0 0
UGUCCGGCAG,0.235,0.156 0.108 0.0738,0.0552 0 0,0 0 0
UGACCGUCAG,0.484,0.295 0.198 0.166,0.110 2.60 0.0232,0.0359 0.0202 0.349
UAGGCGAUCG,0.510,0.104 0.180 0.0738,0.0276 0 0,0 0 0
UUAUCGUGCG,0.248,0.139 0.126 0.0553,0 0 0.0232,0 0 0
UGGUCGCGUG,0.248,0.0348 0.0539 0.184,0 0 0,0 0 0
UGGUCGAAGG,0.222,0.174 0.0898 0.0922,0.0276 0 0.0232,0 0 0
UUGGCGGGGA,0.0261,0 0 0,0 0 0,0 0 0
UCUACGUACG,0.222,0.139 0.0719 0.0553,0.0276 0 0.0232,0 0 0
UUACCGGCAG,0.314,0.156 0.216 0.221,0 0 0.0232,0 0 0
UACCCGCGAG,0.275,0.174 0.126 0.295,0.193 0.177 1.04,0.0180 0.0404 0.0410
UUCCCGAUGG,0.340,0.191 0.0719 0.0922,0.0276 0 0.0232,0 0 0
UGUUCGAGUG,0.183,0.156 0.0719 0.0922,0.0276 0 0.0232,0 0 0
UUUACGGAAG,0.144,1.01 0.611 0.332,0.0828 0 0.0928,0 0 0
UCUGCGGUGG,0.471,0.156 0.162 0.0553,0 0 0,0 0 0
UGUACGAGUG,0.170,0.139 0.180 0.0922,0.0276 0 0,0 0 0
UGGGCGGAGU,0.0261,0 0 0,0 0 0,0 0 0
UUCCCGCUUG,0.275,0.104 0.0898 0.0553,0 0 0.0232,0 0 0
UUUGCGGAAG,0.170,0.0869 0.0898 0.0369,0 0 0,0 0 0
UUUACGCUUG,0.196,0.104 0.0719 0.0922,0 0 0.0232,0 0 0
UGUACGUAAG,0.196,0.0869 0.0898 0.0553,0 0 0,0 0 0
UGGUCGGACG,0.170,0.0695 0.0898 0.0922,0 0 0.0232,0 0 0
UCUACGAAAG,0.196,0.122 0.108 0.0738,0 0 0,0 0 0
UGGACGUAUG,0.379,0.139 0.0898 0.0738,0.166 0 0,0 0 0
UCUCCGCAAG,0.0784,0.660 0.683 0.479,0 0.101 0.0696,0 0 0
UAGCCGAGGG,0.288,0.122 0.0719 0.0553,0.0828 0.0252 0.0696,0 0 0
UGACCGGUAG,0.275,0.278 0.251 0.203,0.469 0.328 0.116,0.0359 0.424 0.328
UUUUCGCGAU,0.0131,0.0348 0.0539 0.111,0 0 0.0232,0 0 0
UCAUCGUGGG,0.105,0.104 0.0539 0.111,0 0 0,0 0 0
UGUCCGGAGG,0.131,0.104 0.0539 0.0922,0 0 0,0 0 0
UGAACGACCG,0.196,0.139 0.269 0.166,0 0 0,0 0 0
UAUUCGGUAG,0.314,0.139 0.0719 0.0184,0 0 0,0 0 0
UAUACGCCAG,0.340,0.0695 0.0539 0.0922,0.0552 0 0,0.0180 0.0202 0.0410
UGCGCGGUCG,0.261,0.104 0.0898 0.0922,0 0 0.0232,0 0 0
UGUGCGGGGG,0.0784,0.0869 0.0898 0.0369,0 0 0,0 0 0
UUAACGGAGA,0.0915,0.469 0.503 0.424,0.0552 0.151 0.0232,0 0.0404 0
UGUGCGAUCG,0.327,0.104 0.0719 0.0553,0 0 0,0 0 0
UUCACGUAGG,0.248,0.191 0.0719 0.0369,0 0 0.0232,0 0 0
UAUACGGGAG,0.235,0.886 0.719 0.406,0.0276 0.126 0.116,0 0 0
UUAGCAAUGG,0.0131,0 0 0,0 0 0,0 0 0
UGUGCGAGCG,0.261,0.0869 0.126 0.166,0 0 0,0 0 0
GGACCGAUGG,0.0131,0.0348 0.0359 0,0 0 0,0 0 0
UUCACGGUUG,0.366,0.0869 0.0898 0.129,0 0 0,0 0 0
UUCACGAAGG,0.222,0.0695 0 0.129,0 0 0,0 0 0
UCUCCGCCCG,0.261,0.104 0.108 0.129,0 0 0,0 0 0
UAGACGCAUG,0.196,0.0869 0.108 0.0369,0 0 0,0 0 0
UUAGCGUUAG,0.445,0.156 0.0539 0.0738,0 0 0,0 0.0202 0.0615
UCCGCGGCUG,0.222,0.0521 0.0719 0.0922,0 0 0.0464,0 0 0
UGAUCGCCAG,0.144,0.0521 0.0180 0.0738,0.0276 0 0.0464,0.0180 0.0404 0
GGACCGCCGG,0.0131,0.0348 0.0180 0.0184,0 0 0,0 0 0
UUAACGCCGG,0.314,0.139 0.144 0.0738,0 0 0.0232,0 0 0
UCGACGGCCG,0.209,0.0348 0.108 0.0553,0 0 0,0 0 0
UUAUCGCAGG,0.170,0.0521 0.0359 0.0738,0 0 0,0 0 0
UCUCCGGCGG,0.248,0.0521 0.108 0.0553,0.0276 0 0,0 0 0
UCAACGUGUG,0.131,0.104 0.0719 0.0369,0.0276 0 0,0 0 0
UUCCCGAUUG,0.261,0.139 0.0719 0.0738,0 0 0.0232,0 0 0
UCUUCGAACG,0.340,0.122 0.144 0.0553,0 0 0,0 0 0
UCUCCGCUGG,0.118,0.0869 0.108 0.0738,0 0 0,0 0 0
UGCCCGUCCG,0.196,0.104 0.126 0.0922,0 0 0.0464,0 0 0
UAUGCGCGGG,0.248,0.174 0.126 0.111,0.0276 0 0,0 0 0